{"source": "PubChem BioAssay AID624099 (ICCB-Longwood, 2012)", "assay": "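Human genes that papillomavirus E2 requires to repress the HPV18 LCR promoter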 (primary screen)", "system": "human C33A cervical carcinoma cells (HPV-negative) stably expressing BPV1 E2 and an HPV18 LCR luciferase reporter", "knock-down reagent": "siRNA pool against human genes, 40 nM", "duration": "72 h", "read-out": "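Per-well luciferase luminescence, z-scored on each plate against the plate mean and SD with control wells left out, then averaged across three replicate plates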", "direction": "mean z-score and z-score: higher = stronger reporter signal, weaker E2 silencing", "hit rule": "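Hit if mean z-score reaches 2 and two or more of three replicate z-scores also reach 2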", "note": "Here is one part, drawn at random, of about 21,000 reagents. 497 of all reagents (2.4%) count as active. 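Higher z means weaker E2 silencing; only reporter increases were scored, and knock-downs that hurt cell survival may mask genuine repressor factors.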"}
{"gene knocked down": "CUL7 (GeneID 9820)", "PubChem SID": "SID134321592", "mean z-score": 1.59, "z-score, replicate A": 1.86, "z-score, replicate B": 1.49, "z-score, replicate C": 1.41, "activity call": "inactive"}
{"gene knocked down": "LDB3 (GeneID 11155)", "PubChem SID": "SID134326502", "mean z-score": -0.89, "z-score, replicate A": -0.79, "z-score, replicate B": -0.9, "z-score, replicate C": -0.96, "activity call": "inactive"}
{"gene knocked down": "LOC392634 (retired record) (GeneID 392634)", "PubChem SID": "SID134327834", "mean z-score": 0.43, "z-score, replicate A": 0.52, "z-score, replicate B": 0.57, "z-score, replicate C": 0.21, "activity call": "inactive"}
{"gene knocked down": "NEURL1B (GeneID 54492)", "PubChem SID": "SID134327521", "mean z-score": 0.05, "z-score, replicate A": -0.44, "z-score, replicate B": 0.19, "z-score, replicate C": 0.41, "activity call": "inactive"}
{"gene knocked down": "POLK (GeneID 51426)", "PubChem SID": "SID134324656", "mean z-score": -0.27, "z-score, replicate A": 0.1, "z-score, replicate B": -0.53, "z-score, replicate C": -0.39, "activity call": "inactive"}
{"gene knocked down": "KCNG1 (GeneID 3755)", "PubChem SID": "SID134311646", "mean z-score": -0.06, "z-score, replicate A": 0.45, "z-score, replicate B": -0.44, "z-score, replicate C": -0.18, "activity call": "inactive"}
{"gene knocked down": "HADHA (GeneID 3030)", "PubChem SID": "SID134314206", "mean z-score": 0.7, "z-score, replicate A": 0.66, "z-score, replicate B": 0.97, "z-score, replicate C": 0.47, "activity call": "inactive"}

A few values from above.
Entry for HADHA (GeneID 3030) [SID134314206] under “z-score, replicate A”: 0.66
Value for CUL7 (GeneID 9820) [SID134321592] under “z-score, replicate B”: 1.49

The results go on.
{"gene knocked down": "RALBP1 (GeneID 10928)", "PubChem SID": "SID134314031", "mean z-score": -1.06, "z-score, replicate A": -1.16, "z-score, replicate B": -0.93, "z-score, replicate C": -1.08, "activity call": "inactive"}
{"gene knocked down": "TAF4B (GeneID 6875)", "PubChem SID": "SID134325685", "mean z-score": 0.05, "z-score, replicate A": -0.19, "z-score, replicate B": 0.08, "z-score, replicate C": 0.25, "activity call": "inactive"}
{"gene knocked down": "LOC389039 (retired record) (GeneID 389039)", "PubChem SID": "SID134327219", "mean z-score": -0.71, "z-score, replicate A": -0.8, "z-score, replicate B": -1.2, "z-score, replicate C": -0.13, "activity call": "inactive"}
{"gene knocked down": "KIAA1217 (GeneID 56243)", "PubChem SID": "SID134326907", "mean z-score": 0.27, "z-score, replicate A": 0.11, "z-score, replicate B": 0.37, "z-score, replicate C": 0.34, "activity call": "inactive"}
{"gene knocked down": "LOC389212 (retired record) (GeneID 389212)", "PubChem SID": "SID134327411", "mean z-score": 0.3, "z-score, replicate A": 0.57, "z-score, replicate B": 0.05, "z-score, replicate C": 0.28, "activity call": "inactive"}
{"gene knocked down": "TRIM67 (GeneID 440730)", "PubChem SID": "SID134329754", "mean z-score": -0.83, "z-score, replicate A": -0.87, "z-score, replicate B": -1.15, "z-score, replicate C": -0.46, "activity call": "inactive"}
{"gene knocked down": "LSP1 (GeneID 4046)", "PubChem SID": "SID134316902", "mean z-score": 0.46, "z-score, replicate A": 0.35, "z-score, replicate B": 0.67, "z-score, replicate C": 0.36, "activity call": "inactive"}
